Test system: tbaqp2/tbaqp3 null cells expressing TbAQP2WT
Assay: Drug sensitivity assay (resazurin)
Type: cell-based, Trypanosoma brucei brucei
Settings: +AQP2 WT (sensitive control)

## O=[As]c1ccccc1 (stereo not shown)
  EC50, percent of AQP2/3 null EC50: 104.03%
